Measured values from several laboratories, pooled; numbers as filed in NIAID ChemDB.

Shared fields: tests in culture; agent: HIV-1; endpoint: EC50

Blank or dashed fields: not listed here. Rows are shuffled and stem from different studies. Two numbers with a dash give a range or band. ECn is the concentration giving n% inhibition of infection, replication or growth.

compound | changes | cell line | strain or isolate | read by | value
Cc1ccc2sn(/N=C/c3ccccc3Cl)c(=O)c2c1 | - | MT-4 | 59 | MTT | 82 µM
CCOC(=O)[C@H](C)NP(=O)(OCC(F)(F)C(F)(F)Cn1cnc2c(=O)[nH]c(N)nc21)Oc1ccccc1 | - | PBMC | LAI | RT activity | >100 µM
COc1cnc(-c2cnccn2)c2[nH]cc(C(=O)C(=O)N3CCN(C(=O)c4ccccn4)[C@@H](C)C3)c12 | - | HeLa | - | luciferase | <1 µM
Nc1ccn(CC(F)(F)C(F)(F)CO)c(=O)n1 | - | PBMC | LAI | RT activity | >100 µM
Cn1cc(N)cc1C(=O)Nc1cc(C(=O)Nc2cc(S(=O)(=O)O)c3cc(S(=O)(=O)O)cc(S(=O)(=O)O)c3c2)n(C)c1 | - | CEM + CEM-SS | RF | cytopathic effect / XTT | 155.7 µM
Cc1cc(/C=C/C#N)cc(C)c1Nc1nc(Nc2ccc(C#N)cc2)ncc1C(O)c1nc2ccccc2s1 | - | MT-4 | PSI (IIIB) | - | 1120 µM
CCCCCCCCCCCCCCCC(=O)NC1C(COP(=O)(O)OC2C(O)C(COP(=O)(O)OC3C(O)C(CO)OC3n3cnc4c(N)ncnc43)OC2n2cnc3c(N)ncnc32)OC(n2cnc3c(N)ncnc32)C1O | - | - | - | syncytia | <100 µM
CC(C)OC(=O)[C@H](C)NP(=O)(OCC(F)(F)C(F)(F)C(F)(F)Cn1ccc(N)nc1=O)Oc1ccccc1 | - | PBMC | LAI | RT activity | >100 µM
N#Cc1ccc(Nc2nnc(Cc3c(F)cccc3F)o2)cc1 | - | MT-2 | IIIB | MTT | 0.36 µM
Cc1ccc2sn(/N=C/c3ccc(O)cc3)c(=O)c2c1 | Y181C | MT-4 | - | MTT | >23 µM
COc1ccc(N/N=C/c2ccc3cccc(O)c3n2)cc1 | - | TZM-bl | VB59 | luciferase | 1.88 µM
Nc1nc(Cl)c2ncn([C@H]3C=C[C@@H](CO)C3)c2n1 | - | MT-2 | - | cytopathic effect / XTT | 0.41 µg/mL
CCCCCCCCCCCCCCC[C@@]1(O)C[N+](C)(C)C[C@@H](CC(=O)[O-])O1 | - | - | RF | virus yield | ~32 µg/mL
Cn1cc(NC(=O)Nc2cc(C(=O)Nc3cc(C(=O)Nc4ccc(P(=O)(O)O)c5cc(P(=O)(O)O)ccc45)n(C)c3)n(C)c2)cc1C(=O)Nc1cc(C(=O)Nc2ccc(P(=O)(O)O)c3cc(P(=O)(O)O)ccc23)n(C)c1 | - | CEM + CEM-SS | G691-2 | cytopathic effect / XTT | 35 µM
Cc1ccc2sn(/N=C/c3cccc(F)c3)c(=O)c2c1 | Y181C | MT-4 | - | MTT | >30 µM
CC(C)c1ccc(N/N=C/c2ccc3cccc(O)c3n2)cc1 | - | TZM-bl | VB59 | luciferase | 54.46 µM
C[C@@H]1CN(C(=O)C(=O)c2c[nH]c3c(-n4ccnn4)ncc(F)c23)CCN1C(=O)c1ccccc1 | - | HeLa | - | luciferase | ≤0.0002 µM
O=c1ccn(CC(F)(F)C(F)(F)C(F)(F)CO)c(=O)[nH]1 | - | PBMC | LAI | RT activity | >100 µM
CN(c1nnc(Nc2ccc(C#N)cc2)o1)c1c(Cl)cccc1Cl | - | MT-2 | IIIB | MTT | 0.27 µM
CC(=O)N[C@@H]1OC(CO[Si](C)(C)C(C)(C)C)C2(OS(=O)(=O)C=C2N)C1O[Si](C)(C)C(C)(C)C | - | MT-4 | - | - | >7.7 µM
COc1ccc(S(=O)(=O)N(CC(C)C)C[C@@H](O)[C@H](Cc2ccccc2)NC(=O)[C@@H]2CCC[C@]3(CCCO3)C2)cc1 | - | MT-4 | IIIB | syncytia | 0.075 µM
C[C@@H]1CN(C(=O)c2ccc(Br)o2)CCN1C(=O)C(=O)c1c[nH]c2c(-c3ccc(C(=O)O)cc3)nccc12 | - | HeLa | - | luciferase | <1 µM
Cc1cc(Nc2nnc(Cc3c(Cl)cccc3Cl)o2)ccc1Cl | - | MT-2 | IIIB | MTT | 1.7 µM
CCC(O)c1cnc(Nc2ccc(C#N)cc2)nc1Nc1c(C)cc(/C=C/C#N)cc1C | - | MT-4 | MDR | - | 2.19 µM
Cc1ccc(-c2c(C)c3c(c(C)c2[C@H](OC(C)(C)C)C(=O)O)CN(C(=O)N2CCCCCCC2)C3)cc1 | - | MT-4 | IIIB | luciferase | 0.036 µM
N#Cc1cccc(Nc2nnc(Cc3c(Cl)cccc3Cl)o2)c1 | - | MT-2 | IIIB | MTT | 4.2 µM
O=c1[nH]c(=S)ccn1[C@@H]1O[C@H](COP(=O)(O)O)[C@@H](O)[C@H]1O | - | H9 | IIIB | syncytia / visual reading | 7.5 µM
Cc1ccccc1N/N=C/c1ccc2cccc(O)c2n1 | - | TZM-bl | VB59 | luciferase | 33.35 µM
Nc1ccn(C/C=C\COCP(=O)(O)O)c(=O)n1 | - | MT-4 | - | - | >100 µM
Cc1ccc2sn(/N=C/c3ccc([N+](=O)[O-])cc3[N+](=O)[O-])c(=O)c2c1 | K103N + Y181C | MT-4 | - | MTT | >100 µM
CCCCCCCCCCCC[C@@]1(O)C[N+](C)(C)C[C@@H](CC(=O)[O-])O1 | - | - | RF | virus yield | ~100 µg/mL
Oc1cccc2ccc(/C=N/Nc3ccc(Cl)cc3Cl)nc12 | - | TZM-bl | VB59 | luciferase | >150 µM
Cc1cc(/C=C/C#N)cc(C)c1Nc1nc(Nc2ccc(C#N)cc2)ncc1C(O)C(C)C | - | MT-4 | MDR | - | 7.59 µM
COc1cc(/C=N/n2sc3ccccc3c2=O)ccc1O | K103N + Y181C | MT-4 | - | MTT | >15 µM
COc1cnc(-c2cccc(NC(=O)C3OC3C(=O)O)n2)c2[nH]cc(C(=O)C(=O)N3CCN(C(=O)c4ccccc4)CC3)c12 | - | HeLa | - | luciferase | <1 µM
CCCCCCCCCCCCCCCC(=O)NC1C(COP(=O)(O)OC2CC(COP(=O)(O)OC3C(O)C(CO)OC3n3cnc4c(N)ncnc43)OC2n2cnc3c(N)ncnc32)OC(n2cnc3c(N)ncnc32)C1O | - | - | - | syncytia | <100 µM
COC(O)c1cnc(Nc2ccc(C#N)cc2)nc1Nc1c(C)cc(/C=C/C#N)cc1C | - | MT-4 | IIIB | - | 0.00331 µM
Clc1cccc(Cl)c1Cc1nnc(Nc2ccc(COCc3ccncc3)cc2)o1 | - | MT-2 | IIIB | MTT | 2.3 µM
Cc1c2c(c(C)c([C@H](OC(C)(C)C)C(=O)O)c1-c1ccc3c(c1)CCCO3)CN(C(=O)c1cccc(F)c1)C2 | - | MT-4 | IIIB | luciferase | 0.036 µM
COc1cc(/C=N/n2sc3ccc(C)cc3c2=O)ccc1O | - | MT-4 | - | MTT | >16 µM
Nc1nc2c(ncn2[C@H]2C=C[C@@H](CO)C2)c(=O)[nH]1 | - | CEM | - | cytopathic effect / XTT | 0.51 µg/mL
Cc1cc(/C=C/C#N)cc(C)c1Nc1nc(Nc2ccc(C#N)cc2)ncc1C(O)n1ccnc1 | - | MT-4 | Y181C | - | 0.0195 µM
Cc1ccc(-c2c(C)c3c(c(C)c2[C@H](OC(C)(C)C)C(=O)O)CN(C2CCC[C@@H](C)C2)C3)cc1 | - | MT-4 | IIIB | luciferase | 0.723 µM
Cn1cc(NC(=O)Nc2cc(C(=O)Nc3cc(C(=O)Nc4cc(S(=O)(=O)O)c5cc(S(=O)(=O)O)cc(S(=O)(=O)O)c5c4)n(C)c3)n(C)c2)cc1C(=O)Nc1cc(C(=O)Nc2cc(S(=O)(=O)O)c3cc(S(=O)(=O)O)cc(S(=O)(=O)O)c3c2)n(C)c1 | - | CEM + CEM-SS | IIIB | cytopathic effect / XTT | 3.2 µM
Nc1nc2c(ncn2C/C=C\CO)c(=O)[nH]1 | - | PBL | - | - | >100 µM
Clc1cccc(Cl)c1Cc1nnc(Nc2ccc(COCc3ccco3)cc2)o1 | - | MT-2 | IIIB | MTT | 3.1 µM
Cc1cc(/C=C/C#N)cc(C)c1Nc1nc(Nc2ccc(C#N)cc2)ncc1C(O)OCCO | - | MT-4 | Y181C | - | 0.00871 µM
Cc1cn(CC(F)(F)C(F)(F)C(F)(F)CO)c(=O)[nH]c1=O | - | PBMC | LAI | RT activity | >100 µM
Nc1nc(N)c2ncn([C@H]3C=C[C@@H](CO)C3)c2n1 | - | MT-2 | - | cytopathic effect / XTT | 2.9 µg/mL
Fc1ccc(Nc2ncc(Cc3c(F)cccc3F)o2)cc1 | - | MT-2 | IIIB | MTT | 0.47 µM
Nc1ncnc2c1ncn2C/C=C\COCP(=O)(O)O | - | PBL | - | - | 9 µM
CCCc1cc(=O)oc2c3c(c4c(c12)OC(C)(C)CC4)O[C@@H](C)[C@H](C)[C@@H]3O | - | CEM + CEM-SS | IIIB | XTT | 0.1 µM
COc1ccc(S(=O)(=O)N(CC(C)C)C[C@@H](O)[C@H](Cc2ccccc2)NC(=O)[C@H]2CCO[C@@]3(CCCO3)C2)cc1 | - | MT-4 | IIIB | syncytia | 2.7 µM
Cc1ccc2sn(/N=C/c3ccccc3)c(=O)c2c1 | EFV-resistant (K103 V179D P225H) | MT-4 | - | MTT | >33 µM
CCCCCCCCCCCCC[C@@]1(O)C[N+](C)(C)C[C@@H](CC(=O)[O-])O1 | - | - | RF | virus yield | ~32 µg/mL
Cn1cc([N+](=O)[O-])cc1C(=O)Nc1ccc(S(=O)(=O)O)c2cc(S(=O)(=O)O)ccc12 | - | CEM + CEM-SS | RF | cytopathic effect / XTT | >500 µM
Cc1ccc2sn(/N=C/c3ccc([N+](=O)[O-])cc3)c(=O)c2c1 | Y181C | MT-4 | - | MTT | >100 µM
Cc1ccc(Nc2ncc(Cc3c(F)cccc3F)o2)cc1 | - | MT-2 | IIIB | MTT | 0.9 µM
COc1ncc(OC)c2c(C(=O)C(=O)N3CCN(C(=O)c4ccccc4)[C@H](C)C3)c[nH]c12 | - | HeLa | - | luciferase | 0.0002–1 µM
CC(c1nnc(Nc2ccc(C#N)cc2)o1)c1c(F)cccc1F | - | MT-2 | IIIB | MTT | 0.13 µM
COc1cnc(-n2cnc(C(=O)N(C)C)n2)c2[nH]cc(C(=O)C(=O)N3CCN(C(=O)c4ccccc4)CC3)c12 | - | HeLa | - | luciferase | ≤0.0002 µM
Cc1cc(/C=C/C#N)cc(C)c1Nc1nc(Nc2ccc(C#N)cc2)ncc1C(O)OCc1cccnc1 | - | MT-4 | IIIB | - | 0.01096 µM
CC(C)(C)OC(=O)C(=O)N1CCN(C(=O)C(=O)c2c[nH]c3c(-c4cnccn4)ncc(Cl)c23)CC1 | - | HeLa | - | luciferase | <1 µM
CC(=O)N[C@H]1OC(CO[Si](C)(C)C(C)(C)C)C2(OS(=O)(=O)C=C2N)C1O[Si](C)(C)C(C)(C)C | - | MT-4 | - | - | >7.7 µM

6 of the rows above, restated:

CCC(O)c1cnc(Nc2ccc(C#N)cc2)nc1Nc1c(C)cc(/C=C/C#N)cc1C ; cell line: MT-4 ; strain or isolate: MDR ; value: 2.19 µM
CC(=O)N[C@@H]1OC(CO[Si](C)(C)C(C)(C)C)C2(OS(=O)(=O)C=C2N)C1O[Si](C)(C)C(C)(C)C ; cell line: MT-4 ; value: >7.7 µM
Cc1cc(/C=C/C#N)cc(C)c1Nc1nc(Nc2ccc(C#N)cc2)ncc1C(O)n1ccnc1 ; cell line: MT-4 ; strain or isolate: Y181C ; value: 0.0195 µM
Cn1cc([N+](=O)[O-])cc1C(=O)Nc1ccc(S(=O)(=O)O)c2cc(S(=O)(=O)O)ccc12 ; cell line: CEM + CEM-SS ; strain or isolate: RF ; read by: cytopathic effect / XTT ; value: >500 µM
Nc1ccn(CC(F)(F)C(F)(F)CO)c(=O)n1 ; cell line: PBMC ; strain or isolate: LAI ; read by: RT activity ; value: >100 µM
CN(c1nnc(Nc2ccc(C#N)cc2)o1)c1c(Cl)cccc1Cl ; cell line: MT-2 ; strain or isolate: IIIB ; read by: MTT ; value: 0.27 µM